Test results reported in US7553832B2, “Methods and compositions for specific inhibition of protein splicing by small molecules” (Boston Biomedical Research Institute, priority 2005, dated 2009).
pIC50: −log10 of the molar value.

Sequences of proteins named here, by UniProt entry; tags and fusion partners are left off. Residues count along the entry.
UniProt P9WMR3, 400-815 limits assumed: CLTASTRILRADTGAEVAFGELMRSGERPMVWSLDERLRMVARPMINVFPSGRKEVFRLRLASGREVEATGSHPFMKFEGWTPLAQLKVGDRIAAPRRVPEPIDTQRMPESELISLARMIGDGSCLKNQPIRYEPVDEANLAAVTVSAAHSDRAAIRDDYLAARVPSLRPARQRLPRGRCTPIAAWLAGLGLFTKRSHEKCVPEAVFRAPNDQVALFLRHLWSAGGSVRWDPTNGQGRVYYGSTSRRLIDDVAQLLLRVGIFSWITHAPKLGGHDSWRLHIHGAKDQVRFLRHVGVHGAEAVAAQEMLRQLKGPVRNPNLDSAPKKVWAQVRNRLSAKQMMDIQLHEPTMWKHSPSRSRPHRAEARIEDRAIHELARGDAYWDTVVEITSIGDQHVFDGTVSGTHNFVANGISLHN

target: M. tuberculosis DnaB intein (Mycobacterium tuberculosis, UniProt P9WMR3); experiment: GFP-DnaB intein fusion fluorometric protein splicing assay; conditions: read-out: DnaB intein IC50; fluorescent GFP-linked protein splicing, 5 to 40 μM tested

| Structure (SMILES) | pIC50 |
| --- | --- |
| Cc1cc(Sc2c([N+](=O)[O-])cc(C(F)(F)F)cc2[N+](=O)[O-])c(Cl)cc1Cl | > 5.30 |
| Cc1nn2c(c1[N+](=O)[O-])n1nc(C)c([N+](=O)[O-])c1n1nc(C)c([N+](=O)[O-])c21 | 4.96 |
| O=C(c1c[nH]c(C(=O)C(Cl)(Cl)Cl)c1)c1c(Cl)cccc1Cl | 5.15 |
